Measured data: PubChem BioAssay AID624099 (ICCB-Longwood, 2012)

- Test: 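Knock-downs relieving repression by E2 of an HPV18 LCR luciferase reporter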 (primary screen)
- System: human C33A cervical carcinoma cells (HPV-negative) stably expressing BPV1 E2 and an HPV18 LCR luciferase reporter
- Reagent: siRNA pool against human genes, 40 nM
- Timing: 72 h
- Measurement: 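HPV18 LCR reporter light per well, converted to plate-wise z-scores that exclude control wells, and averaged over triplicate plates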
- Reading the numbers: mean z-score and z-score: higher = stronger reporter signal, weaker E2 silencing
- Hit rule: 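Mean z ≥ 2 together with z ≥ 2 in two or more of the three replicates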
The whole screen tested about 21,000 reagents; this is a random part of them. 497 of all reagents (2.4%) were called active. 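Higher z means weaker E2 silencing; only reporter increases were scored, and knock-downs that hurt cell survival may mask genuine repressor factors.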 Entries without a mark were called inactive. Reagents against one gene are numbered here.

gene	reagent	mean z-score	z-score, replicate A	z-score, replicate B	z-score, replicate C
SF3A2 (splicing factor 3a subunit 2)	1	-1.24	-1.18	-1.15	-1.4
LINC02076 (long independently transcribed non-coding RNA 2076)	1	1.93	2.02	1.71	2.06
NAT16 (N-acetyltransferase 16 (putative))	1	0.6	0.38	1.02	0.38
NIF3L1 (NGG1 interacting factor 3 like 1)	1	-0.99	-1.45	-0.84	-0.69
DCAF6 (DDB1 and CUL4 associated factor 6)	1	0.19	0.13	0.11	0.34
FLJ46489 (retired record)	1	-0.3	-0.71	-0.38	0.18
RPS26P17 (ribosomal protein S26 pseudogene 17)	1	-0.53	-0.53	-0.53	-0.53
DCAF5 (DDB1 and CUL4 associated factor 5)	1	1.03	1.15	0.81	1.15
OTOR (otoraplin)	1	-1.47	-1.31	-1.7	-1.4
FUBP1 (far upstream element binding protein 1)	1	-1.09	-0.87	-1.53	-0.85
TAOK1 (TAO kinase 1)	1	-0.56	0.03	-0.6	-1.12
LOC401499 (retired record)	1	-0.05	-0.23	0.13	-0.05
MFSD12 (major facilitator superfamily domain containing 12)	1	-0.62	-0.46	-0.7	-0.71
ANO8 (anoctamin 8)	1	-0.85	-0.94	-1.1	-0.49
TJP3P1 (TJP3 pseudogene 1)	1	-0.14	0.23	-0.49	-0.15
CFAP144P1 (CFAP144 pseudogene 1)	1	0.03	0.06	0.02	0
CFAP144P1 (CFAP144 pseudogene 1)	2	0.05	0.06	0.32	-0.23
OGFRL1 (opioid growth factor receptor like 1)	1	-0.67	-0.77	-0.63	-0.6
TBC1D28 (TBC1 domain family member 28)	1	0.57	0.22	0.53	0.95
RNF185 (ring finger protein 185)	1	-1.59	-1.43	-1.79	-1.55
PTPRQ (protein tyrosine phosphatase receptor type Q)	1	0.27	-0.03	-0.04	0.9
ITLN1 (intelectin 1)	1	1.15	1.35	1.35	0.75

The list goes on (4 carried over from the part before).
gene	reagent	mean z-score	z-score, replicate A	z-score, replicate B	z-score, replicate C
TBC1D28 (TBC1 domain family member 28)	1	0.57	0.22	0.53	0.95
RNF185 (ring finger protein 185)	1	-1.59	-1.43	-1.79	-1.55
PTPRQ (protein tyrosine phosphatase receptor type Q)	1	0.27	-0.03	-0.04	0.9
ITLN1 (intelectin 1)	1	1.15	1.35	1.35	0.75
TP53I11 (tumor protein p53 inducible protein 11)	1	-0.59	-0.32	-0.71	-0.76
BCL2A1 (BCL2 related protein A1)	1	-0.43	-0.41	-0.48	-0.39
CH25H (cholesterol 25-hydroxylase)	1	0.44	0.52	0.42	0.38
DNASE2 (deoxyribonuclease 2, lysosomal)	1	-1.41	-0.99	-1.81	-1.43
LOC400602 (retired record)	1	0.63	0.9	0.5	0.5
HS3ST3A1 (heparan sulfate-glucosamine 3-sulfotransferase 3A1)	1	1.35	1.26	1.66	1.13
MRPL50 (mitochondrial ribosomal protein L50)	1	0.38	0.26	0.38	0.49
POMZP3 (POM121 and ZP3 fusion)	1	-0.41	-0.51	-0.28	-0.45
CSGALNACT1 (chondroitin sulfate N-acetylgalactosaminyltransferase 1)	1	-0.37	-0.41	-0.37	-0.34
ARHGAP32 (Rho GTPase activating protein 32)	1	0.06	-0.02	-0.03	0.23
KAT8 (lysine acetyltransferase 8)	1	-1.21	-1.4	-1.1	-1.11
CYP11A1 (cytochrome P450 family 11 subfamily A member 1)	1	0.86	1	0.89	0.68
PLCL1 (phospholipase C like 1 (inactive))	1	1.42	0.81	1.78	1.67
NRG2 (neuregulin 2)	1	0.58	0.22	0.55	0.98
OR1E2 (olfactory receptor family 1 subfamily E member 2)	1	0.04	-0.03	0.07	0.1
C17orf100 (chromosome 17 open reading frame 100)	1	0.44	0.34	0.58	0.4
ANKS3 (ankyrin repeat and sterile alpha motif domain containing 3)	1	-1.08	-1.24	-1.21	-0.79
TRIM58 (tripartite motif containing 58)	1	-0.8	-0.82	-0.68	-0.89
LOC401072 (retired record)	1	0.2	-0.04	0.44	0.22
CCDC140 (CCDC140 long non-coding RNA)	1	-0.3	-0.37	-0.2	-0.33
UPK3A (uroplakin 3A)	1	-0.02	-0.05	0.01	-0.01
ABHD3 (abhydrolase domain containing 3, phospholipase)	1	-0.71	-1.04	-0.6	-0.49
ACAP2 (ArfGAP with coiled-coil, ankyrin repeat and PH domains 2)	1	0.79	0.57	0.92	0.9
ITFG2-AS1 (ITFG2 antisense RNA 1)	1	0.51	0.66	0.32	0.54
TRMO (tRNA methyltransferase O)	1	-0.55	-0.26	-0.64	-0.74
SESN2 (sestrin 2)	1	-0.39	-0.58	-0.42	-0.17
U2AF1L4 (U2 small nuclear RNA auxiliary factor 1 like 4)	1	-2.14	-2.31	-2.33	-1.79
GLT1D1 (glycosyltransferase 1 domain containing 1)	1	-0.11	0.31	-0.19	-0.44
RREB1 (ras responsive element binding protein 1)	1	-1.39	-1.68	-1.4	-1.1
KANK4 (KN motif and ankyrin repeat domains 4)	1	-0.42	-0.84	-0.55	0.14
LYPD6 (LY6/PLAUR domain containing 6)	1	0.96	0.95	1.08	0.87
ADM5 (adrenomedullin 5 (putative))	1	0.26	0.24	0.35	0.18
CCK (cholecystokinin)	1	0.51	0.24	0.82	0.47
EXTL3 (exostosin like glycosyltransferase 3)	1	-1.18	-1.24	-1.26	-1.03
POTED (POTE ankyrin domain family member D)	1	1.4	1.04	1.57	1.57
